Measurements reported in the supplement of paper PMC9931576.
Human monoclonal antibodies against the spike receptor-binding domain (heavy:light variable regions). IC50 against pseudoviruses bearing the spike of naturally observed variants; lower = stronger; >10 µg/ml means not reached at the top dose. No active / inactive call. The stated detection limit is 0.0005 µg/ml; values near or below 0.001 µg/ml lie at the floor of the assay.

B1: BD58-0482 (protein)
chain 1: QVTLRESGPALVKPTQTLTLTCTFSGFSLSTSGMCVSWIRQPPGKALEWLGLIHWDDDKYYNTSLKTRLTISKDTSKNQVVLIMTNMDPVDTATYYCARIPAGSSSWFFDYWGQGTLVTVSS
chain 2: SYELTQPPSVSVSPGQTARITCSGDALPNQYAYWYQQKPGQAPVLVIFKDSERPSGIPERFSGSSSGTTVTLTISGVQAEDEADYYCQSTDNSATVLFGGGTKLTVL
B2: BD58-0468 (protein)
chain 1: EVQLVESGGGVVQPGGSLRLSCAASGFTFDDFAMHWVRQAPGKGLEWVSLISGDGGRTDYADSVKGRFTISRDNSKNSLYLQMNSLRIEDTALYYCAKARIPYSPYHYDTDVWGQGTTVTVSS
chain 2: DIQMTQSPSSLSASVGDRVTITCQASPDISDYLNWYQLKPGKAPKLLIYDASNLETGVPSRFSGSGSGTDFTFTISSLQPEDIATYYCQQYDNLPLTFGQGTRLEIK
B3: BD58-0515 (protein)
chain 1: EVQLVQSGAEVKKPGESLKISCKGSGFSFTSYWIAWVRQTPGKGLEWMGIIYPDDSDTIYSPPFQGRVTISADKSITTAYLQWSSLEVSDTAMYYCARGMVRDAFDLWGQGTMVTVSS
chain 2: DIQMTQSPSSLSASVGDRVTITCRASQGVSTSLAWYQQKPGTAPKLLLYGASRMESGVPSRFSGSGSGTHFTLTISSLQPEDFATYYCQQYYSTLVTFGGGTKVEIK
B4: BD58-0475 (protein)
chain 1: QVQLQESGPGLVKPSQTLSLTCTVSGGSISSGVYYWSWIRQHPGKGLEWIGYIYYSGSAYYNPSLKSRITISVDTSKNQFSLKLSSVTAADTAVYYCARDDDSNGRVDYWGQGTLVTVSS
chain 2: QSAPTQPASVSGSPGQSITISCTGTNSDIGGYNFVSWYQQHPGKAPKLMIYDVSNRPSGVSNRFSGSKSGNTASLTISGLQAEDEADYYCSSYTSSSTRVFGGGTKLTVL
B5: BD58-0506 (protein)
chain 1: EVQLVESGGGLVKPGGSLRLSCAASEFTFFSYQMDWVRQAPGKGLEWVSSISSGSSYIYYADSVKGRFTISRDDAKNSLYLQMHSLRAEDTAVYYCARDSPRGYLDLVAGYGMDVWGQGTTVTVSS
chain 2: EIVLTQSPATLSLSPGERATLSCRASQNVSSFLAWYQQKPGQPPRLLIYDASNRATGIPARFSGSGSGTDFTLTISTLEPEDFALYYCQQRSNWPPFSFGQGTKLEIK

How the values were obtained:
Assay in all cases: pseudovirus neutralization IC50; higher = weaker neutralization
[1] = target: SARS-CoV-2 Omicron BA.1 spike pseudovirus
Description: (§1)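 Single-round VSV luciferase pseudovirus mixed with antibody dilutions for 1 h and put on Huh-7 cells for about a day; IC50 from the dose curve.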

[2] = target: SARS-CoV-2 Omicron BA.2 spike pseudovirus
Description: as §1

[3] = target: SARS-CoV-2 Omicron BA.2.75 spike pseudovirus
Description: as §1

[4] = target: SARS-CoV-2 Omicron BA.2.75.2 spike pseudovirus
Description: as §1

[5] = target: SARS-CoV-2 Omicron BA.5 spike pseudovirus
Description: as §1

[6] = target: SARS-CoV-2 Omicron BM.1.1.1 spike pseudovirus
Description: as §1

[7] = target: SARS-CoV-2 Omicron BQ.1.1 spike pseudovirus
Description: as §1

[8] = target: SARS-CoV-2 Omicron BR.2 spike pseudovirus
Description: as §1

[9] = target: SARS-CoV-2 Omicron CA.1 spike pseudovirus
Description: as §1

[10] = target: SARS-CoV-2 Omicron XBB spike pseudovirus
Description: as §1

[11] = target: SARS-CoV-2 early D614G spike pseudovirus
Description: as §1

Binder	pseudovirus neutralization IC50 [1]	pseudovirus neutralization IC50 [2]	pseudovirus neutralization IC50 [3]	pseudovirus neutralization IC50 [4]	pseudovirus neutralization IC50 [5]	pseudovirus neutralization IC50 [6]	pseudovirus neutralization IC50 [7]	pseudovirus neutralization IC50 [8]	pseudovirus neutralization IC50 [9]	pseudovirus neutralization IC50 [10]	pseudovirus neutralization IC50 [11]
B1	0.00246 µg/mL	0.129 µg/mL	0.0147 µg/mL	0.0442 µg/mL	0.0392 µg/mL	0.0135 µg/mL	0.0963 µg/mL	0.0187 µg/mL	0.0257 µg/mL	> 10 µg/mL	> 10 µg/mL
B2	0.00191 µg/mL	0.00117 µg/mL	> 10 µg/mL	> 10 µg/mL	> 10 µg/mL	> 10 µg/mL	> 10 µg/mL	> 10 µg/mL	> 10 µg/mL	> 10 µg/mL	> 10 µg/mL
B3	0.000436 µg/mL	0.000926 µg/mL	0.00413 µg/mL	0.0189 µg/mL	0.000829 µg/mL	0.0277 µg/mL	> 10 µg/mL	0.0287 µg/mL	0.089 µg/mL	> 10 µg/mL	> 10 µg/mL
B4	> 10 µg/mL	0.0475 µg/mL	> 10 µg/mL	> 10 µg/mL	0.0127 µg/mL	> 10 µg/mL	> 10 µg/mL	> 10 µg/mL	> 10 µg/mL	> 10 µg/mL	> 10 µg/mL
B5	0.0023 µg/mL	0.00374 µg/mL	> 10 µg/mL	> 10 µg/mL	> 10 µg/mL	> 10 µg/mL	> 10 µg/mL	> 10 µg/mL	> 10 µg/mL	> 10 µg/mL	> 10 µg/mL
